A mixed list of measured activities; the numbers were collected in NIAID ChemDB.

Common to all: tests in culture; species: Herpes simplex virus 1

Blank or dashed fields: not listed here. ECn is the concentration giving n% inhibition of infection, replication or growth. Neighbouring rows are from separate reports.

smiles	measure	changes	read by	strain or isolate	cell line	result
O=c1c2ncn(COC(CO)CO)c2nc2[nH]c(-c3ccc(C(F)(F)F)cc3)cn12	EC50		cytopathic effect	F	HEL	0.384 µg/mL
Nc1nc2c(ncn2CCC(CO)CO)c(=O)[nH]1	EC50		plaque count	KOS (TK-)	MRC-5	240 µg/mL
O=c1[nH]c(=O)n([C@H]2C[C@H](O)[C@@H](CO)O2)cc1I	MIC			PRIC		1.1 µg/mL
Nc1nc(=O)n([C@H]2C[C@H](O)[C@@H](CO)O2)cc1/C=C\Cl	EC50		cytopathic effect	VMW1837 (TK-)	PRK	>200 µg/mL
O=c1c2ncn(COC(CO)CO)c2nc2[nH]c(-c3ccc(F)cc3)cn12	EC50		cytopathic effect	McIntyre	HEL	0.384 µg/mL
O=c1[nH]c(=O)n([C@H]2C[C@H](O)[C@@H](CO)O2)cc1/C=C/Br	EC50		cytopathic effect	KOS	HEL	0.02 µM
Cn1cc(C(=O)NCc2ccc(Cl)cc2)c(=O)c2cc(CN3CCOCC3)ccc21	EC50		plaque count	L6191321 ACV resistant	HFF	2.6 µM
c1c[nH]c(CNCc2cc(CNCc3ccc[nH]3)cc(CNCc3ccc[nH]3)c2)c1	EC50		cytopathic effect	KOS	Human embryonic lung fibroblasts	>20 µM
Nc1ncnc2c1ncn2[C@@H]1O[C@H](COP(=O)(O)O)[C@@H](O)[C@@H]1O	EC50		plaque count	Clinical isolate Wilson	MEF	16 µM
Nc1ncnc2c1ncn2[C@@H]1C[C@H](CO)[C@@H](O)[C@@H]1O	EC50		plaque count	F-FIAC-C3	VERO	60 µM
Nc1nc2c(ncn2COCCO)c(=O)[nH]1	EC50		cytopathic effect	KOS	Human embryonic lung fibroblasts	0.4 µM
Nc1ncnc2c1cnn2Cc1cn(CCCCO)nn1	EC50			B2006 (TK-)	E6SM	>400 µg/mL
Cc1c(-c2ccc(C(F)(F)F)cc2)[nH]c2nc3c(ncn3COCCO)c(=O)n12	EC50		cytopathic effect	KOS	HEL	9.6 µg/mL
CC(=O)NS(=O)(=O)c1cc(C)c(NC(=O)CN2C(=O)c3ccccc3S2(=O)=O)cc1C	EC50		cytopathic effect	KOS	HEL	>100 µM
Nc1ccn([C@@H]2O[C@H](CO)[C@@H](O)[C@@H]2O)c(=O)n1	EC50		plaque count	KOS	VERO	0.2 µM
Cc1cn([C@@H]2O[C@H](CO)[C@@H](O)[C@@H]2F)c(=O)[nH]c1=O	EC50		plaque count	F-AMAU-C2	VERO	11 µM
Cn1cc(C(=O)NCc2ccc(Cl)cc2)c(=O)c2cc(CN3CCOCC3)ccc21	EC50		plaque count	KOS	VERO	3.3 µM
Cc1cn([C@@H]2O[C@H](CO)[C@@H](O)[C@@H]2O)c(=O)[nH]c1=O	EC50		plaque count	VR-3	VERO	43 µM
Nc1nc2c(ncn2COC(CO)CO)c(=O)[nH]1	EC50		plaque count	ICI	RK-13	0.48 µM
CCCCC(C)(C)[C@H](O)/C=C/[C@H]1C=CC(=O)[C@@H]1CCCCCCC(=O)O	EC50		hybridisation	H129	HFF	4.9 µg/mL
CCCCCCCc1nc2c(N)ncnc2n1[C@H]1C[C@H](O)[C@@H](CO)O1	EC50		cytopathic effect	B2006 (TK-)	ESM	>40 µg/mL
C=Cc1cn(OCCO)c(=O)[nH]c1=O	EC50		plaque count	KOSSB (TK-)	VERO	>50 µg/mL
O=c1c2ncn(COCCO)c2nc2[nH]c(-c3ccccc3)c(Cc3ccccc3)n12	EC50		cytopathic effect	F	HEL	9.6 µg/mL
OCCCCn1nncc1Cn1ncc2c(SCc3ccccc3)ncnc21	EC50			B2006 (TK-)	E6SM	>400 µg/mL
O=c1[nH]c(=O)n([C@@H]2O[C@H](CO)[C@@H](O)[C@@H]2O)cc1/C=C/Br	EC50		cytopathic effect	KOS	HeLa	0.07 µg/mL
O=C(NCc1ccc(Cl)cc1)c1cn2c3c(cc(CN4CCOCC4)cc3c1=O)OC(c1cccnc1)C2	EC50		plaque count	L5047716 ACV resistant	HFF	4.7 µM
CCc1cc(CC)c(CNCc2ccc[nH]2)c(CC)c1CNCc1ccc[nH]1	EC50		cytopathic effect	KOS	Human embryonic lung fibroblasts	>0.8 µM
CCc1nc2c(N)ncnc2n1[C@H]1C[C@H](O)[C@@H](CO)O1	EC50		cytopathic effect	KOS	ESM	300 µg/mL
Nc1nc(=O)n([C@@H]2CC[C@H](CO)O2)cc1F	EC50		plaque count	VR-3	HEL	3.7 µM
CC(=O)OC[C@H]1[C@H](COC(C)=O)[C@@H](CO)O[C@H]1n1cnc2c(N)ncnc21	EC50		plaque count	E-377	MEF	122 µM
O=c1[nH]c(=O)n([C@H]2C[C@H](O)[C@@H](CO)O2)cc1/C=C\Cl	EC50		cytopathic effect	McIntyre	PRK	0.2 µg/mL
O=c1[nH]c(=O)n([C@H]2C[C@H](O)[C@@H](CO)O2)cc1I	EC50		plaque count	P	HFF	1.05 µg/mL
O=c1[nH]cnc2c1cnn2Cc1cn(CCCCO)nn1	EC50			VWM1837	E6SM	>400 µg/mL
c1c[nH]c(CNCc2c(CNCc3ccc[nH]3)c(CNCc3ccc[nH]3)c(CNCc3ccc[nH]3)c(CNCc3ccc[nH]3)c2CNCc2ccc[nH]2)c1	EC50		cytopathic effect	TK- KOS ACVr	Human embryonic lung fibroblasts	>20 µM
C/C(=N/Nc1nc(-c2ccc(Br)cc2)cs1)c1ccc(NC(=O)CN2C(=O)c3ccccc3S2(=O)=O)cc1	EC50	TK-deficient acyclovir-resistant	cytopathic effect	KOS	HEL	>20 µM
C#Cc1nc2c(N)ncnc2n1[C@H]1C[C@H](O)[C@@H](CO)O1	EC50		cytopathic effect	G	ESM	>4 µg/mL
Cn1cc(C(=O)NCc2ccc(Cl)cc2)c(=O)c2cc(/C=C\CO)cc(F)c21	EC50		plaque count	DJL-M1	VERO	>20 µM
O=c1[nH]c(=O)n([C@@H]2O[C@H](CO)[C@@H](O)[C@@H]2F)cc1CO	EC50		plaque count	F	VERO	0.48 µM
Nc1nc2c(ncn2CCCCO)c(=O)[nH]1	EC50		plaque count	C42	SIRC	1.2 µM
O=c1[nH]c(=O)n([C@@H]2O[C@H](CO)[C@@H](O)[C@@H]2F)cc1I	EC50		plaque count	F-FAU-C2	VERO	7.8 µM
CC(C)NS(=O)(=O)c1ccccc1C(=O)N/N=C/c1ccccc1	EC50	TK-deficient acyclovir-resistant	cytopathic effect	KOS	HEL	>100 µM
CCc1c2c(CC)c(CN[C@H]3CCCC[C@@H]3N)c(CC)c1CN[C@H]1CCCC[C@@H]1NCc1ccc([nH]1)CN[C@H]1CCCC[C@@H]1NC2	EC50		cytopathic effect	TK- KOS ACVr	Human embryonic lung fibroblasts	>20 µM
O=c1[nH]c(=O)n([C@H]2C[C@H](O)[C@@H](CO)O2)cc1/C=C/Br	EC50		cytopathic effect	KOS	BSC-1	0.02 µg/mL
O=C(NCc1ccc(Cl)cc1)c1c[nH]c2ccc(C#CCO)cc2c1=O	EC50		plaque count	KOS		7.4 µM
CCCC#Cc1nc2c(N)ncnc2n1[C@H]1C[C@H](O)[C@@H](CO)O1	EC50		cytopathic effect	B2006 (TK-)	ESM	100 µg/mL
Cc1cn([C@@]2(C)C[C@H](O)[C@@H](CO)S2)c(=O)[nH]c1=O	EC50		cytopathic effect		HEL	4 µg/mL
Nc1ncnc2c1c(Br)cn2COCCO	EC50		cytopathic effect		VERO	23.74 µM
CCc1cn([C@H]2C[C@H](O)[C@@H](CO)O2)c(=O)[nH]c1=O	EC50		plaque count	F-FIAC-C3	VERO	>200 µM
Nc1ccn(C[C@@H](CO)OCP(=O)(O)O)c(=O)n1	EC50		plaque count	SC16-S1 (TK altered)	MRC-5	1.4 µM
CSc1ncnc2c1cnn2Cc1cn(CCCCO)nn1	EC50			VWM1837	E6SM	>400 µg/mL
Nc1ncnc2c1ncn2[C@@H]1O[C@H](CO)[C@@H](O)[C@@H]1O	EC50		cytopathic effect	KOS	HSF	15 µg/mL
CCCCC/C=C\c1nc2c(N)ncnc2n1[C@H]1C[C@H](O)[C@@H](CO)O1	EC50		cytopathic effect	B2006 (TK-)	ESM	>40 µg/mL
Nc1nc2c(ncn2COCCO)c(=O)[nH]1	EC50		plaque count	C42	VERO	0.3 µM
C/C(=N/Nc1nc(-c2ccc(C)cc2)cs1)c1ccc(NC(=O)CN2C(=O)c3ccccc3S2(=O)=O)cc1	EC50	TK-deficient acyclovir-resistant	cytopathic effect	KOS	HEL	20 µM

Again, the opening 3 rows:

| smiles | measure | changes | read by | strain or isolate | cell line | result |
|---|---|---|---|---|---|---|
| O=c1c2ncn(COC(CO)CO)c2nc2[nH]c(-c3ccc(C(F)(F)F)cc3)cn12 | EC50 |  | cytopathic effect | F | HEL | 0.384 µg/mL |
| Nc1nc2c(ncn2CCC(CO)CO)c(=O)[nH]1 | EC50 |  | plaque count | KOS (TK-) | MRC-5 | 240 µg/mL |
| O=c1[nH]c(=O)n([C@H]2C[C@H](O)[C@@H](CO)O2)cc1I | MIC |  |  | PRIC |  | 1.1 µg/mL |